Among the data in publication PMC2330087, “Mechanistic Insights into a Novel Exporter-Importer System of Mycobacterium tuberculosis Unravel Its Role in Trafficking of Iron” (PLoS ONE, 2008) are Kd values, retold here.

Amino acid sequences for entries named in this document (tags omitted). A change or cut given only in a name is not applied to a line headed by its entry. Residues count along the entry.
UniProt P9WL31: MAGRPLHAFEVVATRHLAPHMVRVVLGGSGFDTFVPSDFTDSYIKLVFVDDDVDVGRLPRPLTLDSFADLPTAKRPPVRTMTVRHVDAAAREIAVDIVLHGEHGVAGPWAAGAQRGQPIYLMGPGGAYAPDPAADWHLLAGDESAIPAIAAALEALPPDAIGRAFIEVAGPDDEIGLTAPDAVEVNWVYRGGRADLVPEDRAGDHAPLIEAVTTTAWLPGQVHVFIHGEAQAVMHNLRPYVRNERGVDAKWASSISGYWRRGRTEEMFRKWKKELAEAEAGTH
UniProt P9WQJ9, 1-251: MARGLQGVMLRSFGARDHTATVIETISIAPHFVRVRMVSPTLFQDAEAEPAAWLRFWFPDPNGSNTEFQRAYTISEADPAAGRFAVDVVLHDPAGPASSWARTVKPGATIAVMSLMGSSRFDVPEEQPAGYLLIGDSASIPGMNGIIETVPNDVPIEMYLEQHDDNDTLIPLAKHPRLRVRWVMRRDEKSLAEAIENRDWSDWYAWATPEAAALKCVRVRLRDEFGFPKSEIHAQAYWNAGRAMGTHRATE

In one assay the target is T1, rRv2895c (Mycobacterium tuberculosis, UniProt P9WL31).
T1 construct: gene Rv2895c

In assay [1] the target is rSBD (N-terminal siderophore binding domain of IrtA, Rv1348) (Mycobacterium tuberculosis, UniProt P9WQJ9).

On to Fe-cMyco, for which the equilibrium dissociation constant (Kd) (commonly the constant that tells how readily two partners part at equilibrium) at rRv2895c is 127 µM; in assay [1], 50 µM.
As for cMyco, the dissociation constant (Kd) at rRv2895c came out at 180 µM; in assay [1] it was 25.5 µM.
